Anti-infective test results gathered from many reports (values: NIAID ChemDB through PubChem).

Common to all: growth or infection tests; organism: HIV-1; method: syncytia; read-out: EC50

Neighbouring rows are from separate reports. ECn is the concentration giving n% inhibition of infection, replication or growth. An empty or dashed field is not shown.

smiles,changes,cell line,strain or isolate,conditions,value
CCc1c(Cc2cccc3ccccc23)nc(SCCc2ccccc2)[nH]c1=O,-,C8166,IIIB,-,1.79 µM
CN[C@@H]1[C@H](O[C@@H]2OC[C@@H](O)[C@H](O)[C@H]2O)[C@@H](O)[C@H](O[C@H]2c3cc(C)c(C(=O)N[C@H](C)C(=O)O)c(O)c3-c3c(cc4c(c3O)C(=O)c3cc(OC)cc(O)c3C4=O)[C@@H]2O)O[C@@H]1C,-,CEM,Mutant AH_3/#100,-,6.5 µM
CC(C)C[C@H](NC(=O)[C@@H](NC(=O)[C@@H](N)Cc1c[nH]c2ccccc12)C(C)C)[C@@H](O)CC(=O)NC(Cc1ccccc1)c1ccccc1,-,MT-4,-,-,5 µM
CCOC(=O)Cc1c(N)nc(N)nc1OCCOCP(=O)(O)O,-,CEM,IIIB,-,≥300 µM
Cc1cc(C)cc(Cc2c(C(C)C)c(=O)[nH]c(=O)n2COCCO)c1,RT-Y181I,CEM,IIIB,-,>10 µM
CCCCn1c(=O)cnn([C@H]2C[C@H](O)[C@@H](CO)S2)c1=O,-,CEM,IIIB,-,>20 µM
COCCCCCCCCCCCC(=O)O,-,PBMC,IIIB,-,19 µM
CCc1c(Sc2cc(C)cc(C)c2)n(COCc2ccccc2)c(=O)[nH]c1=O,Nevirapine resistant (RT Y181C),CEM,IIIB,-,0.1 µM
Nc1nc(N)n(CCOCP(=O)(O)O)c(=O)c1-c1ccccc1,-,CEM,IIIB,-,≥300 µM
CCCCCCn1c(=O)cnn([C@H]2C[C@H](O)[C@@H](CO)S2)c1=O,-,CEM,IIIB,-,>100 µM
COc1cccc(F)c1C1SCC(=O)N1c1cccc(C)n1,-,CEM,IIIB,-,0.219 µM
CCOCn1c(Cc2cc(C)cc(C)c2)c(CC)c(=O)[nH]c1=O,RT-L100I,CEM,IIIB (TIBO 82150) (RT-L100I),-,0.008 µM
CC(C)CC(NC(=O)[C@@H](NC(=O)[C@H](Cc1c[nH]c2ccccc12)NC(=O)CCCCC(=O)Nc1ccn([C@H]2CS[C@@H](CO)O2)c(=O)n1)C(C)C)[C@@H](O)CC(=O)NC(Cc1ccccc1)c1ccccc1,-,MT-4,-,-,10 µM
CC[C@H](C)[C@H](NC(=O)C[C@H](O)[C@H](CC(C)C)NC(=O)[C@@H](NC(=O)[C@H](Cc1ccc(O)cc1)NC(=O)OCc1ccccc1)C(C)C)C(=O)N[C@@H](Cc1ccccc1)C(=O)OC,-,MT-4,-,-,20 µM
CC(C)=CCC/C(C)=C/CC/C(C)=C/CC/C(C)=C/Cc1cc(O)cc2c1OC(=O)C2,-,C8166,IIIB,-,3.7 µM
Cc1c(Cc2cccc3ccccc23)nc(SCC(=O)c2cccs2)[nH]c1=O,-,C8166,IIIB,-,1.92 µM
CC(C)C[C@H](NC(=O)[C@@H](NC(=O)[C@H](Cc1c[nH]c2ccccc12)NC(=O)CCCCC(=O)Nc1ccn([C@H]2CC[C@@H](CO[Si](c3ccccc3)(c3ccccc3)C(C)(C)C)O2)c(=O)n1)C(C)C)[C@@H](O)CC(=O)NC(Cc1ccccc1)c1ccccc1,-,MT-4,-,-,10 µM
O=C(O)c1cn(-c2ccc(Cn3cncn3)cc2)c2c(Cl)c(N3CCN(c4ccccn4)CC3)c(F)cc2c1=O,-,PBL,-,-,0.2 µM
Cc1cccc(CNc2nc3cc(C(=O)NC(C)CO)ccc3n2C2CCCCCC2)c1C,-,H9,-,2% FBS,3 µM
CCc1c(Sc2ccccc2)n(COCc2ccccc2)c(=O)[nH]c1=O,RT-Y188H,CEM,IIIB,-,13 µM
N#CC1C=Cc2c(ccc3ccccc23)N1C(=O)c1ccco1,-,MOLT-3,IIIB,-,44.1 µM
CCOCn1c(Sc2ccccc2)c(CC)c(=O)[nH]c1=O,RT-L100I,CEM,IIIB (TIBO 82150) (RT-L100I),-,0.033 µM
COc1cccc(F)c1C1SCC(=O)N1c1nccc(C)n1,-,CEM,IIIB,-,0.469 µM
Cc1cc(C)cc(CNc2nc3cc(C(=O)NC(C)(CO)CO)ccc3n2C2CCCCCC2)c1,-,H9,-,2% FBS,0.75 µM
CC(C)c1c(Cc2ccccc2)nc(SCC(=O)c2ccco2)[nH]c1=O,-,C8166,IIIB,-,0.095 µM
CC(C)=CCC/C(C)=C/CC/C(C)=C/CC/C(C)=C/Cc1cc(O)cc2c1OC(=O)C2=C(C)C,-,C8166,IIIB,-,1.62 µM
CCCOC(=O)N1c2ccc3ccccc3c2C=CC1C#N,-,MOLT-3,IIIB,-,6.1 µM
O=C(O)c1cc2c([nH]c3ccccc32)c(-c2ccc(CO)o2)n1,-,C8166,IIIB,-,2.37 µM
CCOC(=O)Cc1c(N)nc(N)n(CCOCP(=O)(O)O)c1=O,-,CEM,IIIB,-,≥300 µM
CC1(C)C=C2C3CCC4[C@@]5(C)CCC(=O)C(C)(C)C5[C@H](O)C[C@@]4(C)[C@]3(C)CC[C@@]2(C(=O)O)CC1,-,C8166,IIIB,-,13.11 µM
Cc1c(Cc2cccc3ccccc23)nc(SCC(=O)c2ccco2)[nH]c1=O,-,C8166,IIIB,-,1.82 µM
O=S(=O)(O)c1cc(O)c2c(NS(=O)(=O)c3ccc(-c4ccc(S(=O)(=O)Nc5cc(S(=O)(=O)O)cc6cc(S(=O)(=O)O)cc(O)c56)cc4)cc3)cc(S(=O)(=O)O)cc2c1,-,MT-4,IIIB,-,40 µg/mL
Nc1nc(N)n(CCOCP(=O)(O)O)c(=O)c1C1CC1,-,CEM,IIIB,-,≥300 µM
CC(=O)O[C@H]1CC[C@@]2(C)[C@@H](CC[C@@]3(C)[C@H]2CC=C2[C@@H]([C@H](C)CC/C=C(\C)C(=O)O)CC[C@@]23C)C1(C)C,-,1A2,deltaTAT/Rev MC99,-,5.8 µg/mL
Cc1occc1C(=O)Nc1ccc(Cl)c(/C=N/N2CCCC2)c1,RT-K103N,CEM,R82913-resistant (RT K103N),-,<2 µg/mL
COc1cc2c(c(O)c1OC)-c1c(cc(OC)c(OC)c1O)C[C@H](C)[C@H](C)C2,-,C8166,IIIB,-,5.64 µM
CC(C)(C)NC(=O)[C@@H]1C[C@@H]2CCCC[C@@H]2CN1C[C@H](O)CNC(=O)[C@@H]1N[C@@H]([C@H](NC(=O)Cc2ccccc2)C(=O)NCc2ccccc2)SC1(C)C,-,C8166,RF,-,0.05 µM
CCc1c(Sc2cc(C)cc(C)c2)n(COCCO)c(=O)[nH]c1=O,-,CEM,IIIB,-,0.003 µM
CCOC(=O)N1c2ccc3ccccc3c2C=CC1C#N,RT-P236L,MOLT-3,IIIB,-,14.3 µM
Cc1cn([C@H]2C[C@H](N=[N+]=[N-])[C@@H](CO)O2)c(=O)[nH]c1=O,-,C8166,IIIB,-,0.00534 µg/mL
CCc1c(Cc2cccc3ccccc23)nc(SCC(=O)c2ccc(OC)cc2)[nH]c1=O,-,C8166,IIIB,-,0.427 µM
Nc1nc(=O)n([C@H]2CC[C@@H](CO)O2)cc1F,-,C8166,RF,-,0.022 µM
COC(=O)C[C@H](O)[C@H](CC(C)C)NC(=O)[C@H](C)NC(=O)C[C@H](O)[C@H](CC(C)C)NC(=O)[C@@H](NC(=O)[C@H](Cc1ccc(O)cc1)NC(=O)OCc1ccccc1)C(C)C,-,MT-4,-,-,20 µM
Cc1cc(C)nc(N2C(=O)CSC2c2c(C(F)(F)F)ccc(Cl)c2F)c1,-,CEM,IIIB,-,5.92 µM
CCn1c(=O)cnn([C@H]2C[C@H](O)[C@@H](CO)S2)c1=O,-,CEM,IIIB,-,>100 µM
CC(CO)(CO)NC(=O)c1ccc2c(c1)nc(NCc1cccc3ccccc13)n2C1CCCCCC1,-,H9,-,2% FBS,5 µM
CC(C)c1c(Sc2ccccc2)n(COCc2ccccc2)c(=O)[nH]c1=O,Nevirapine resistant (RT Y181C),CEM,IIIB,-,0.25 µM
CC(C)C[C@H](NC(=O)[C@H](Cc1ccccc1)NC(=O)C[C@H](O)[C@H](Cc1ccccc1)NC(=O)OC(C)(C)C)C(=O)N[C@@H](Cc1ccccc1)C(=O)Nc1ccn([C@H]2CS[C@@H](CO)O2)c(=O)n1,-,MT-4,-,-,1 µM
O=C(O)c1cn(-c2ccc(Cn3cncn3)cc2)c2cc(N3CCN(c4ccc(F)cc4F)CC3)c(F)cc2c1=O,-,PBL,-,-,0.16 µM
Cc1cn([C@H]2C=C[C@@H](CO)O2)c(=O)[nH]c1=O,-,CEM + CEM/0,IIIB,-,0.8 µM
O=C(NCc1ccc2c(c1)[C@H](O)[C@@H](O)c1cc(CNC(=O)OCc3ccccc3)ccc1C2=O)OCc1ccccc1,-,PBL,-,-,10 µM
COc1ccc(S(=O)(=O)N(CC(C)C)C[C@@H](O)[C@H](Cc2ccccc2)NC(=O)[C@H]2CCO[C@@]3(CCCO3)C2)cc1,-,MT-4,IIIB,-,2.7 µM
Cc1cc(C)cc(CNc2nc3cc(C(=O)NC(C)CO)ccc3n2C2CCCCCC2)c1,-,H9,-,2% FBS,0.6 µM
CC.CC(C)C[C@H](NC(=O)[C@@H](NC(=O)[C@H](Cc1c[nH]c2ccccc12)NC(=O)CCCCCCC(=O)Nc1ccn([C@H]2CC[C@@H](CO[Si](c3ccccc3)(c3ccccc3)C(C)(C)C)O2)c(=O)n1)C(C)C)[C@@H](O)CC(=O)NC(Cc1ccccc1)c1ccccc1,-,MT-4,-,-,0.5 µM
O=c1cnn([C@H]2C[C@H](O)[C@@H](CO)S2)c(=O)[nH]1,-,CEM,IIIB,-,>100 µM
Cc1c(N)nc(N)nc1OCCOCP(=O)(O)O,-,CEM,IIIB,-,0.33 µM
CCNC(=O)[C@@H](NC(=O)Cc1ccccc1)[C@@H]1N[C@@H](C(=O)NC[C@H](O)CN2C[C@H]3CCCC[C@H]3C[C@H]2C(=O)NC(C)(C)C)C(C)(C)S1,-,C8166,RF,-,0.74 µM
Nc1nc(N)n(CCOCP(=O)(O)O)c(=O)c1CC(=O)O,-,CEM,IIIB,-,≥300 µM
CC(C)CC(NC(=O)[C@@H](NC(=O)[C@H](Cc1ccc(O)cc1)NC(=O)OCc1ccccc1)C(C)C)[C@@H](O)CC(=O)N[C@@H](C)C(=O)N[C@H](CO)CC(C)C,-,MT-4,-,-,40 µM
Cc1cc(C)cc(Sc2c(C(C)C)c(=O)[nH]c(=S)n2COCCO)c1,RT-L100I,CEM,IIIB (TIBO 82150) (RT-L100I),-,0.009 µM
CCN(Cc1cccc(C)c1)c1nc2cc(C(=O)NC(C)CO)ccc2n1C1CCCCCC1,-,H9,-,20% FBS,>50 µM
COc1ccc(S(=O)(=O)N(CC(C)C)C[C@@H](O)[C@H](Cc2ccccc2)NC(=O)[C@@H]2CCC[C@]3(CCCO3)C2)cc1,-,MT-4,IIIB,-,0.075 µM

3 of the rows above, restated:

smiles | changes | cell line | strain or isolate | conditions | value
Cc1cn([C@H]2C[C@H](N=[N+]=[N-])[C@@H](CO)O2)c(=O)[nH]c1=O | - | C8166 | IIIB | - | 0.00534 µg/mL
CCc1c(Cc2cccc3ccccc23)nc(SCCc2ccccc2)[nH]c1=O | - | C8166 | IIIB | - | 1.79 µM
COCCCCCCCCCCCC(=O)O | - | PBMC | IIIB | - | 19 µM